This data set relates to Cc1cc(=O)oc2c(F)c(OP(=O)(O)O)c(F)cc12. Put plainly: purified protein. The settings on record: 37.0 °C.

What is called Km is the substrate concentration at which the rate is half of its maximum. Broadly, the kcat/Km is the second-order rate constant that governs catalysis at low substrate concentration. For “(Legionella pneumophila subsp. pneumophila str. Philadelphia 1)”, the Km turned out to be 11.3 ± 0.8 µM and the kcat/Km was determined as 3580 M⁻¹ s⁻¹.
